Source: patent publication US20160264649A1

Experiments:
Assay in all cases: cell-based or functional assay
[1] = target: HIV-1 Env of the clade A viruses (n=26) of the cross-clade 162-pseudovirus panel
[2] = target: HIV-1 Env of the clade AE viruses (n=10) of the cross-clade 162-pseudovirus panel
[3] = target: HIV-1 Env of the clade AG viruses (n=10) of the cross-clade 162-pseudovirus panel
[4] = target: HIV-1 Env of the clade D viruses (n=25) of the cross-clade 162-pseudovirus panel
[5] = target: HIV-1 Env of the 162-pseudovirus panel representing all major circulating HIV-1 subtypes (HIV-1)
[6] = target: HIV-1 Env of all viruses (n=162) of the cross-clade 162-pseudovirus panel
[7] = target: HIV-1 Env of the clade G viruses (n=15) of the cross-clade 162-pseudovirus panel
[8] = target: HIV-1 Env of the clade B viruses (n=31) of the cross-clade 162-pseudovirus panel
[9] = target: HIV-1 Env of the clade F viruses (n=15) of the cross-clade 162-pseudovirus panel
[10] = target: HIV-1 Env of the clade C viruses (n=27) of the cross-clade 162-pseudovirus panel

Binder	Median IC50 (µg/ml) against all viruses [1] [µg/mL]	Median IC50 (µg/ml) against viruses neutralized with an IC50 <50 µg/ml [1] [µg/mL]	Percent viruses neutralized with an IC50 <50 µg/ml [1] [%]	Median IC50 (µg/ml) against all viruses [2] [µg/mL]	Percent viruses neutralized with an IC50 <50 µg/ml [2] [%]	Median IC50 (µg/ml) against all viruses [3] [µg/mL]	Median IC50 (µg/ml) against viruses neutralized with an IC50 <50 µg/ml [3] [µg/mL]	Percent viruses neutralized with an IC50 <50 µg/ml [3] [%]	Median IC50 (µg/ml) against all viruses [4] [µg/mL]	Percent viruses neutralized with an IC50 <50 µg/ml [4] [%]	Median IC50 (µg/ml) against viruses neutralized with an IC50 <50 µg/ml [5] [µg/mL]	Percent viruses neutralized, IC50 < 0.1 µg/ml [5] [%]	Percent viruses neutralized, IC50 < 1 µg/ml [5] [%]	Percent viruses neutralized, IC50 < 50 µg/ml [5] [%]	Median IC50 (µg/ml) against all viruses [6] [µg/mL]	Percent viruses neutralized with an IC50 <50 µg/ml [6] [%]	Median IC50 (µg/ml) against viruses neutralized with an IC50 <50 µg/ml [7] [µg/mL]	Percent viruses neutralized with an IC50 <50 µg/ml [7] [%]	Median IC50 (µg/ml) against viruses neutralized with an IC50 <50 µg/ml [8] [µg/mL]	Percent viruses neutralized with an IC50 <50 µg/ml [8] [%]	other results
5147_N06 (PGT-130) (antibody, V domains shown) VH: QVQLQESGPGLVKPAETLSLTCSVSGESINTGHYYWGWVRQVPGKGLEWIGHIHYTTAVLHNPSLKSRLTIKIYTLRNQITLRLSNVTAADTAVYHCVRSGGDILYYYEWQKPHWFSPWGPGIHVTVSS VL: QSALTQPPSASGSLGQSVTISCNGTSSDIGGWNFVSWYQQFPGRAPRLIIFEVNKRPSGVPGRFSGSKSGNSASLTVSGLQSDDEGQYFCSSLFGRWDVVFGGGTKLTVL	41.4	0.09	50	0.58	80	21.8	0.04	50	50	44	0.16	23	35	52	22.1	52	4.14	47	0.09	65	Median IC50 (µg/ml) against viruses neutralized with an IC50 <50 µg/ml [2]: 0.17 µg/mL; Median IC50 (µg/ml) against viruses neutralized with an IC50 <50 µg/ml [4]: 0.65 µg/mL; Median IC50 (µg/ml) against all viruses [7]: 50 µg/mL; Median IC50 (µg/ml) against all viruses [8]: 5.17 µg/mL; Median IC50 (µg/ml) against all viruses [9]: 50 µg/mL; Median IC50 (µg/ml) against viruses neutralized with an IC50 <50 µg/ml [9]: 0.07 µg/mL; Percent viruses neutralized with an IC50 <50 µg/ml [9]: 33%; Median IC50 (µg/ml) against all viruses [10]: 50 µg/mL; Median IC50 (µg/ml) against viruses neutralized with an IC50 <50 µg/ml [10]: 0.15 µg/mL; Percent viruses neutralized with an IC50 <50 µg/ml [10]: 48%
5141_B17 (PGT-126) (antibody, V domains shown) VH: QPQLQESGPGLVEASETLSLTCTVSGDSTAACDYFWGWVRQPPGKGLEWIGGLSHCAGYYNTGWTYHNPSLKSRLTISLDTPKNQVFLKLNSVTAADTAIYYCARFDGEVLVYHDWPKPAWVDLWGRGTLVTVSS VL: QSALTQPPSASGSPGQSISISCTGTSNRFVSWYQQHPGKAPKLVIYGVNKRPSGVPDRFSGSKSGNTASLTVSGLQTDDEAVYYCSSLVGNWDVIFGGGTKLTVL	2.62	0.01	50	50	40	11.1	0.03	50	43.1	52	0.04	40	50	60	1.08	60	0.18	33	0.02	81	Median IC50 (µg/ml) against viruses neutralized with an IC50 <50 µg/ml [2]: 1.77 µg/mL; Median IC50 (µg/ml) against viruses neutralized with an IC50 <50 µg/ml [4]: 0.04 µg/mL; Median IC50 (µg/ml) against viruses neutralized with an IC50 <50 µg/ml [6]: 0.04 µg/mL; Median IC50 (µg/ml) against all viruses [7]: 48.9 µg/mL; Median IC50 (µg/ml) against all viruses [8]: 0.04 µg/mL; Median IC50 (µg/ml) against all viruses [9]: 50 µg/mL; Median IC50 (µg/ml) against viruses neutralized with an IC50 <50 µg/ml [9]: 0.06 µg/mL; Percent viruses neutralized with an IC50 <50 µg/ml [9]: 33%; Median IC50 (µg/ml) against all viruses [10]: 0.79 µg/mL; Median IC50 (µg/ml) against viruses neutralized with an IC50 <50 µg/ml [10]: 0.18 µg/mL; Percent viruses neutralized with an IC50 <50 µg/ml [10]: 74%
5145_B14 (PGT-127) (antibody, V domains shown) VH: QPQLQESGPGLVEASETLSLTCTVSGDSTGRCNYFWGWVRQPPGKGLEWIGSLSHCRSYYNTDWTYHNPSLKSRLTISLDTPKNQVFLRLTSVTAADTATYYCARFGGEVLVYRDWPKPAWVDLWGRGTLVVTVSS VL: QSALTQPPSASGSPGQSITISCTGTSNNFVSWYQQYPGKAPKLVIYEVNKRPSGVPDRFSGSKSGSTASLTVSGLQADDEGVYYCSSLVGNWDVIFGGGTKLTVL	21.7	0.02	50	50	0	50	0.04	40	50	48	0.08	27	37	50	42.8	50	0.22	40	0.06	81	Median IC50 (µg/ml) against viruses neutralized with an IC50 <50 µg/ml [4]: 0.49 µg/mL; Median IC50 (µg/ml) against viruses neutralized with an IC50 <50 µg/ml [6]: 0.08 µg/mL; Median IC50 (µg/ml) against all viruses [7]: 50 µg/mL; Median IC50 (µg/ml) against all viruses [8]: 0.12 µg/mL; Median IC50 (µg/ml) against all viruses [9]: 50 µg/mL; Median IC50 (µg/ml) against viruses neutralized with an IC50 <50 µg/ml [9]: 0.65 µg/mL; Percent viruses neutralized with an IC50 <50 µg/ml [9]: 27%; Median IC50 (µg/ml) against all viruses [10]: 19.2 µg/mL; Median IC50 (µg/ml) against viruses neutralized with an IC50 <50 µg/ml [10]: 0.55 µg/mL; Percent viruses neutralized with an IC50 <50 µg/ml [10]: 52%
5114_A19 (PGT-128) (antibody, V domains shown) VH: QPQLQESGPTLVEASETLSLTCAVSGDSTAACNSFWGWVRQPPGKGLEWVGSLSHCASYWNRGWTYHNPSLKSRLTLALDTPKNLVFLKLNSVTAADTATYYCARFGGEVLRYTDWPKPAWVDLWGRGTLVTVSS VL: QSALTQPPSASGSPGQSITISCTGTSNNFVSWYQQHAGKAPKLVIYDVNKRPSGVPDRFSGSKSGNTASLTVSGLQTDDEAVYYCGSLVGNWDVIFGGGTKLTVL	0.35	0.01	50	0.31	60	1.62	0.67	90	0.14	60	0.02	50	60	72	0.1	72	0.04	67	0.01	81	Median IC50 (µg/ml) against viruses neutralized with an IC50 <50 µg/ml [2]: 0.06 µg/mL; Median IC50 (µg/ml) against viruses neutralized with an IC50 <50 µg/ml [6]: 0.02 µg/mL; Median IC50 (µg/ml) against all viruses [9]: 1.21 µg/mL; Median IC50 (µg/ml) against viruses neutralized with an IC50 <50 µg/ml [9]: 0.52 µg/mL; Percent viruses neutralized with an IC50 <50 µg/ml [9]: 80%; Median IC50 (µg/ml) against viruses neutralized with an IC50 <50 µg/ml [10]: 0.04 µg/mL; Percent viruses neutralized with an IC50 <50 µg/ml [10]: 78%
